Assay results published in publication PMC5704035 (Biochemistry and Biophysics Reports, 2017).

Key:
[1] = tested on: CN(C)c1ccc(N=Nc2ccccc2C(=O)O)cc1; test: purified protein; settings: 1 mM NADH, FMN, potassium phosphate pH 7.1, room temperature
[2] = tested on: NC(=O)C1=CN([C@@H]2O[C@H](COP(=O)(O)OP(=O)(O)OC[C@H]3O[C@@H](n4cnc5c(N)ncnc54)[C@H](O)[C@@H]3O)[C@@H](O)[C@H]2O)C=CC1; test: purified protein; settings: 30 µM methyl red, FMN, potassium phosphate pH 7.1, room temperature

Row | Substance | Km [1] [µM] | kcat [1] [s⁻¹] | kcat/Km [1] [M⁻¹ s⁻¹] | Km [2] [µM] | kcat [2] [s⁻¹] | kcat/Km [2] [M⁻¹ s⁻¹]
1 | AzoA (Enterococcus faecalis V583; R21K) | 19.5 | 45.9 | 2.35e+06 | 121.8 | 45.9 | 380000
2 | AzoA (Enterococcus faecalis V583; N121Q) | 29 | 72.6 | 2.5e+06 | 370.9 | 72.6 | 200000
3 | AzoA (Enterococcus faecalis V583; N121Q/R21K) | 33.8 | 44.3 | 1.31e+06 |  |  | 
4 | AzoA (Enterococcus faecalis V583; N121A/R21G) | 10.8 | 74.7 |  | 79.5 | 74.7 | 
5 | AzoA (Enterococcus faecalis V583; N121Q/R21G) | 16.3 | 95.3 | 5.85e+06 | 190.4 | 95.3 | 500000
6 | AzoA (Enterococcus faecalis V583; N121A/R21K) | 31 | 43 | 1.39e+06 |  |  | 
